# Experimental data: patent US9018248B2, “Fatty acid derivatives of catechins and methods of their use” (Genesis Group Inc., priority 2010, dated 2015)
# Experiment: Bulk oil system, stripped corn oil, Rancimat
# Conditions: Rancimat 100° C., 1 μmol compound in 3 g stripped corn oil
# Method: One milliliter of EGCG and its derivatives dissolved in ethanol (1 μmol/ml) was transferred into a reaction vessel, followed by evaporation of the solvent to dryness under a stream of nitrogen. To each vessel (an empty vessel was used as control) 3 g of stripped corn oil (devoid of endogenous antioxidants) were added. The evaluation was carried out under accelerated oxidation in a Rancimat (Metrohm Model 743, Herisau, Switzerland) conditions at 100° C. with an air flow rate of 20 l/h. Lipid oxidation in the absence and presence of test compounds was monitored by changes in electrical conductivity, arising from the formation of volatile oxidation products. The induction periods (IP, time to reach a sudden increase in oxidation rate) were recorded. […] Antioxidant activity was interpreted as protection factor (PF), which was calculated as follow. PF=IPsample/IPcontrol where, IPsample and IPcontrol represent induction periods for the oil with and without test compounds, respectively. Discussion
compound,measurement,value
"O=C(O[C@@H]1Cc2c(O)cc(O)cc2O[C@@H]1c1cc(O)c(O)c(O)c1)c1cc(O)c(O)c(O)c1 [EGCG, Epigallocatechin gallate, reference compound]",Induction Time,3.97 h
CCC=CCC=CCC=CCC=CCC=CCCCC(=O)Oc1cc(C(=O)OC2Cc3c(O)cc(O)cc3OC2c2cc(OC(=O)CCCC=CCC=CCC=CCC=CCC=CCC)c(O)c(OC(=O)CCCC=CCC=CCC=CCC=CCC=CCC)c2)cc(OC(=O)CCCC=CCC=CCC=CCC=CCC=CCC)c1O (stereo not shown) [Compound 1b],Induction Time,2.33 h
CCC=CCC=CCC=CCC=CCC=CCC=CCCC(=O)Oc1cc(C(=O)OC2Cc3c(O)cc(O)cc3OC2c2cc(OC(=O)CCC=CCC=CCC=CCC=CCC=CCC=CCC)c(O)c(OC(=O)CCC=CCC=CCC=CCC=CCC=CCC=CCC)c2)cc(OC(=O)CCC=CCC=CCC=CCC=CCC=CCC=CCC)c1O (stereo not shown) [Compound 1c],Induction Time,2.19 h
"CCCCCCCCCCCCCCCCCC(=O)Oc1cc(C(=O)OC2Cc3c(O)cc(O)cc3OC2c2cc(OC(=O)CCCCCCCCCCCCCCCCC)c(O)c(OC(=O)CCCCCCCCCCCCCCCCC)c2)cc(OC(=O)CCCCCCCCCCCCCCCCC)c1O (stereo not shown) [Compound 1a, EGCG stearate]",Induction Time,6.75 h
